A mixed list of measured activities; the numbers were collected in NIAID ChemDB.

Shared fields: tests in culture; organism: Herpes simplex virus 1

ECn is the concentration giving n% inhibition of infection, replication or growth. Neighbouring rows are from separate reports.

{"smiles": "O=C1CCC(c2ccccc2)C(=O)N1CCCCN1CCN(c2ccccc2O)CC1", "cells": "VERO 76", "endpoint": "EC50", "read by": "MTT", "result": ">100 µM"}
{"smiles": "Nc1ccn(C[C@H]2COP(=O)(O)CO2)c(=O)n1", "cells": "VERO", "strain": "KOS", "endpoint": "EC50", "read by": "cytopathic effect", "result": "1.45 µg/mL"}
{"smiles": "C[C@@]1(CO)[C@H](O)CC[C@@]2(C)[C@H]1CC[C@H]1C[C@@H]3C[C@@]12CC[C@]3(O)CO", "cells": "HeLa", "strain": "KOS", "endpoint": "EC90", "read by": "virus yield", "result": "4 µM"}
{"smiles": "COc1ccc2nc3cc(Cl)ccc3c(NC(CO)C(C)C)c2c1", "cells": "VERO 76", "endpoint": "EC50", "read by": "plaque count", "result": ">5 µM"}
{"smiles": "N/C(=N/O)c1cn([C@@H]2O[C@H](CO)[C@@H](O)[C@@H]2O)c2ncnc(N)c12", "cells": "VERO", "strain": "KOS", "endpoint": "EC50", "read by": "plaque count", "result": "80 µM"}
{"smiles": "Nc1nc2c(ncn2[C@H]2C[C@@]23C[C@@H]3CO)c(=O)[nH]1", "cells": "VERO", "endpoint": "EC50", "read by": "plaque count", "result": ">50 µM"}
{"smiles": "NCC(=O)N[C@@H](Cc1ccccc1)C(=O)OCCOCn1cnc2c(=O)[nH]c(N)nc21", "strain": "KOS", "endpoint": "MIC", "result": "0.96 µM"}
{"smiles": "Nc1nc2c(ncn2COC(CO)CO)c(=O)[nH]1", "cells": "HEL", "strain": "KOS S2242-resistant", "endpoint": "EC50", "read by": "cytopathic effect", "result": "0.0009 µg/mL"}
{"smiles": "Nc1nc2c(ncn2[C@H]2C[C@@]23C[C@H]3CO)c(=O)[nH]1", "cells": "BSC-1", "endpoint": "EC50", "read by": "ELISA", "result": ">50 µM"}
{"smiles": "COc1ccccc1N1CCN(CCCCN2C(=O)CCC(c3ccccc3)C2=O)CC1", "cells": "VERO 76", "endpoint": "EC50", "read by": "MTT", "result": ">100 µM"}
{"smiles": "COC(=O)[C@H](C)NP(=O)(OC[C@@H]1C[C@]12C[C@@H]2n1cnc2c(N)ncnc21)Oc1ccccc1", "cells": "VERO", "endpoint": "EC50", "read by": "plaque count", "result": "20 µM"}
{"smiles": "Nc1nc2c(ncn2COCCOC(=O)CNC(=O)[C@@H](N)Cc2ccccc2)c(=O)[nH]1", "strain": "KOS", "endpoint": "MIC", "result": "0.8 µM"}
{"smiles": "O=C1CCC(c2ccccc2)C(=O)N1CCCN1CCN(c2ccccn2)CC1", "cells": "VERO 76", "endpoint": "EC50", "read by": "MTT", "result": ">100 µM"}
{"smiles": "NC(=O)c1cn([C@@H]2O[C@H](CO)[C@@H](O)[C@@H]2O)c2ncnc(N)c12", "cells": "VERO", "strain": "KOS", "endpoint": "EC50", "read by": "plaque count", "result": "8 µM"}
{"smiles": "Cc1c(C(N)=O)ncn1C1OC(CO)C(O)C1O", "cells": "HeLa", "endpoint": "EC50", "read by": "cytopathic effect", "result": "75 µg/mL"}
{"smiles": "Nc1nc(N)c2ncn(CCOCP(=O)(O)O)c2n1", "cells": "VERO", "strain": "KOS", "endpoint": "EC50", "read by": "cytopathic effect", "result": "3.1 µg/mL"}
{"smiles": "Cc1c(C(N)=O)ncn1COCCO", "cells": "HeLa", "endpoint": "EC50", "read by": "cytopathic effect", "result": ">200 µg/mL"}
{"smiles": "O=C(O)P(=O)(O)O", "cells": "HeLa", "strain": "KOS", "endpoint": "EC90", "read by": "virus yield", "result": "160 µM"}
{"smiles": "COc1ccc2nc3cc(Cl)ccc3c(NCCC[C@@H]3CCCN4CCCC[C@H]34)c2c1", "cells": "VERO 76", "endpoint": "EC50", "read by": "plaque count", "result": ">3 µM"}
{"smiles": "O=c1[nH]c(=O)n([C@H]2C[C@H](O)[C@@H](CO)O2)cc1/C=C/Br", "cells": "HEL", "strain": "KOS PMEDAP-resistant", "endpoint": "EC50", "read by": "cytopathic effect", "result": "0.001 µg/mL"}
{"smiles": "COc1ccc2nc3cc(Cl)ccc3c(NCCCCCO)c2c1", "cells": "VERO 76", "endpoint": "EC50", "read by": "plaque count", "result": ">35 µM"}
{"smiles": "Nc1ncnc2c1ncn2[C@@H]1O[C@H](CO)[C@@H](O)[C@@H]1O", "cells": "HEL", "strain": "KOS HPMPA-resistant", "endpoint": "EC50", "read by": "cytopathic effect", "result": "11.9 µg/mL"}
{"smiles": "CCOC(=O)P(=O)(O)OC[C@H]1S[C@@H](n2cc(CC)c(=O)[nH]c2=O)C[C@@H]1O", "cells": "VERO", "strain": "L2 acyclovir-susceptible", "endpoint": "EC50", "read by": "cytopathic effect", "result": "0.7 µM"}
{"smiles": "Nc1nc2c(ncn2[C@H]2C[C@]23C[C@@H]3CO)c(=O)[nH]1", "cells": "BSC-1", "endpoint": "EC50", "read by": "ELISA", "result": ">100 µM"}
{"smiles": "Nc1nc(N)c2ncn(CCOCP(=O)(O)O)c2n1", "cells": "HEL", "strain": "KOS GCV-resistant", "endpoint": "EC50", "read by": "cytopathic effect", "result": "7.2 µg/mL"}
{"smiles": "O=C1CCC(c2ccccc2)C(=O)N1", "cells": "VERO 76", "endpoint": "EC50", "read by": "MTT", "result": ">98 µM"}
{"smiles": "COc1ccc2nc3cc(Cl)ccc3c(N)c2c1", "cells": "VERO 76", "endpoint": "EC50", "read by": "plaque count", "result": ">10 µM"}
{"smiles": "CC(C)[C@H](NC(=O)[C@H](C)N)C(=O)OCCOCn1cnc2c(=O)[nH]c(N)nc21", "strain": "KOS", "endpoint": "MIC", "result": "1.3 µM"}
{"smiles": "O=c1[nH]cnc2c1ncn2CC(CO)OCP(=O)(O)O", "cells": "Primary rabbit kidney cells", "strain": "3 strains", "endpoint": "EC50", "read by": "cytopathic effect", "result": ">400 µg/mL"}
{"smiles": "Nc1nc2c(ncn2CCC(CO)CO)c(=O)[nH]1", "cells": "HEL", "strain": "KOS", "endpoint": "EC50", "read by": "cytopathic effect", "result": "0.044 µg/mL"}
{"smiles": "CC(C)[C@H](NC(=O)[C@@H](N)Cc1ccccc1)C(=O)OCCOCn1cnc2c(=O)[nH]c(N)nc21", "strain": "KOS", "endpoint": "MIC", "result": "2.9 µM"}
{"smiles": "Nc1ncnc2c1ncn2C[C@H]1COP(=O)(O)CO1", "cells": "Primary rabbit kidney cells", "strain": "3 strains", "endpoint": "EC50", "read by": "cytopathic effect", "result": "2 µg/mL"}
{"smiles": "N#Cc1cn(COCCO)c2ncnc(N)c12", "cells": "HFF", "endpoint": "EC50", "read by": "plaque count", "result": ">320 µM"}
{"smiles": "O=C(O)P(=O)(O)O", "cells": "HEL", "strain": "KOS S2242-resistant", "endpoint": "EC50", "read by": "cytopathic effect", "result": "110.8 µg/mL"}
{"smiles": "O=c1[nH]cnc2c1ncn2CCOCP(=O)(O)O", "cells": "Primary rabbit kidney cells", "strain": "3 strains", "endpoint": "EC50", "read by": "cytopathic effect", "result": ">400 µg/mL"}
{"smiles": "COc1ccc2nc3cc(Cl)ccc3c(NCCCO)c2c1", "cells": "VERO 76", "endpoint": "EC50", "read by": "plaque count", "result": ">100 µM"}
{"smiles": "O=c1[nH]c(=O)n([C@@H]2O[C@H](CO)[C@@H](O)[C@@H]2O)cc1/C=C/Br", "cells": "HEL", "strain": "KOS", "endpoint": "EC50", "read by": "cytopathic effect", "result": "0.0065 µg/mL"}
{"smiles": "Nc1ncnc2c1c(I)cn2COC(CO)CO", "cells": "HFF", "endpoint": "EC50", "read by": "plaque count", "result": "3.5 µM"}
{"smiles": "N=C(N)c1cn([C@@H]2O[C@H](CO)[C@@H](O)[C@@H]2O)c2ncnc(N)c12", "cells": "VERO", "strain": "KOS", "endpoint": "EC50", "read by": "plaque count", "result": ">100 µM"}
{"smiles": "NC(=O)c1cn(COCCO)c2ncnc(N)c12", "cells": "HFF", "endpoint": "EC50", "read by": "plaque count", "result": ">100 µM"}
{"smiles": "CC(C)[C@H](N)C(=O)N[C@H](C(=O)OCCOCn1cnc2c(=O)[nH]c(N)nc21)C(C)C", "strain": "KOS", "endpoint": "MIC", "result": "2.9 µM"}
{"smiles": "NC(=O)c1cn([C@H]2CC[C@@H](CO)O2)c2ncnc(N)c12", "cells": "HFF", "endpoint": "EC50", "read by": "plaque count", "result": ">100 µM"}
{"smiles": "Nc1ccn(C[C@@H](CO)OCP(=O)(O)O)c(=O)n1", "cells": "Primary rabbit kidney cells", "strain": "3 strains", "endpoint": "EC50", "read by": "cytopathic effect", "result": "4 µg/mL"}